Compound potency records, mixed from different reports. Data source: NIAID ChemDB in PubChem.

Common to all: growth or infection tests; species: HIV-1

ECn is the concentration giving n% inhibition of infection, replication or growth. An empty or dashed field is not shown. Neighbouring rows are from separate reports.

smiles | endpoint | method | changes | cells | setting | strain | result
CCN1C(=O)N(Cc2ccccc2)S(=O)(=O)c2cscc21 | EC50 | syncytia | RT-Y181C | CEM | - | IIIB | >310 µM
Cc1cn([C@H]2C[C@H](N=[N+]=[N-])[C@@H](CO)O2)c(=O)[nH]c1=O | EC50 | ELISA / antigen | - | MT-4 | - | IIIB | 0.04 µM
NCCCC[C@@H](NC(=O)[C@H](Cc1ccc2ccccc2c1)NC(=O)[C@H](CCCN=C(N)N)NC(=O)[C@@H](N)CCCN=C(N)N)C(=O)N1CCC[C@H]1C(=O)N[C@@H](Cc1ccc(O)cc1)C(=O)N[C@@H](CCCN=C(N)N)C(=O)O | EC50 | cytopathic effect / MTT | - | MT-4 | - | IIIB | >100 µM
Cc1cc(C)c(Nc2ccnc(Nc3ccc(C#N)cc3)n2)c(C)c1 | EC50 | absorbance | - | PBMC | - | 7324-1 | 0.0017 µM
O=C1Nc2cscc2S(=O)(=O)N1Cc1ccccc1 | EC50 | syncytia | - | CEM | - | IIIB | >67.9 µM
Nc1nc(=O)n([C@H]2C[C@H](O)[C@@H](CO)O2)cc1-c1nccs1 | EC50 | RT activity | - | H9 | - | IIIB | >10 µg/mL
CCc1cc(CCc2nc3c(Cl)ccc(Cl)c3o2)c(=O)[nH]c1C | EC95 | p24 | - | H9 | - | IIIB | 0.025 µM
CCCCCOCc1cn([C@H]2C[C@H](N=[N+]=[N-])[C@@H](CO)O2)c(=O)[nH]c1=O | EC50 | ELISA / antigen | - | MT-4 | - | IIIB | >100 µM
CCCN(C)C(=O)Oc1nsnc1-c1c(Cl)cccc1Cl | EC50 | cytopathic effect / MTT | - | MT-4 | - | IIIB | 0.0125 µM
Cc1ccc(C(=O)OC[C@H]2O[C@H](n3cc(-c4sccc4C)c(=O)[nH]c3=O)C[C@@H]2OC(=O)c2ccc(C)cc2)cc1 | EC50 | RT activity | - | H9 | - | IIIB | <1 µg/mL
CCCCCCOCc1cn([C@@H]2C[C@H](N=[N+]=[N-])[C@@H](CO)O2)c(=O)[nH]c1=O | EC50 | ELISA / antigen | - | MT-4 | - | IIIB | 33 µM
Cc1cn([C@H]2C[C@H](N=[N+]=[N-])[C@@H](CN3C(=O)c4c(Cl)c(Cl)c(Cl)c(Cl)c4C3=O)O2)c(=O)[nH]c1=O | EC50 | syncytia | - | CEM | - | IIIB | 2.6 µM
C[C@H](Cn1cnc2c(N)ncnc21)OCP(=O)(O)O | EC50 | syncytia | RT-Y188H | CEM | - | IIIB | 0.8 µg/mL
CCCN(C)C(=O)Oc1nsnc1-c1c(Cl)ccc(N)c1Cl | EC50 | cytopathic effect / MTT | - | MT-4 | - | IIIB | 0.006 µM
NC(=O)CN1C(=O)N(Cc2ccccc2)c2cscc2S1(=O)=O | EC50 | cytopathic effect / MTT | - | MT-4 | - | IIIB | >355.7 µM
Cc1cn([C@H]2C[C@H](N=[N+]=[N-])[C@@H](CO)O2)c(=O)[nH]c1=O | EC50 | cytopathic effect / MTT | - | MT-4 | 5 d | HE-NEV | 0.029 µM
CC(C)=CCN1c2cc(Cl)cc3[nH]c(=S)n(c23)C[C@@H]1C | EC95 | - | RT-M41L T215Y Y181C | MT-4 | - | - | >3 µM
Cc1cn([C@H]2C[C@H](N=[N+]=[N-])[C@@H](COP(=O)(O)OC[C@H]3OC(O)[C@H](O)[C@@H](O)[C@@H]3O)O2)c(=O)[nH]c1=O | EC50 | RT activity | - | CEM | 15 d | LAV-Bru | <0.2 µM
Nc1ccn([C@@H]2CO[C@H](CO)S2)c(=O)n1 | EC50 | p24 | - | MT-4 | - | IIIB | 0.9 µM
Cc1cn([C@H]2C[C@H](N=[N+]=[N-])[C@@H](CN3C(=O)c4ccc(C(=O)OCC56CC7CC(CC(C7)C5)C6)cc4C3=O)O2)c(=O)[nH]c1=O | EC50 | syncytia | - | CEM | - | IIIB | 0.06 µM
Nc1nc(=O)n([C@@H]2C[C@H](O)[C@@H](CO)O2)cc1-c1ccccn1 | EC50 | RT activity | - | H9 | - | IIIB | >10 µg/mL
CN1C(=O)N(Cc2ccccc2)S(=O)(=O)c2cscc21 | EC50 | syncytia | - | CEM | - | IIIB | 2.3 µM
Cc1cn([C@H]2C[C@H](N=[N+]=[N-])[C@@H](CO)O2)c(=O)[nH]c1=O | EC50 | cytopathic effect / MTT | - | MT-4 | - | IIIB | 0.079 µM
O=Nc1c(-c2c(O)[nH]c3ccccc23)[nH]c2ccccc12 | EC50 | RT activity | - | PBMC | - | IIIB X4 | 0.5 µM
[N-]=[N+]=NC[C@]1(CO)C[C@@H](n2cnc3c(N)ncnc32)CO1 | EC50 | - | - | MT-4 | - | IIIB | >100 µM
CCCN(C)C(=O)Oc1nsnc1-c1c(Cl)ccc(C(=O)OCC)c1Cl | EC50 | cytopathic effect / MTT | - | MT-4 | - | IIIB | 0.15 µM
Cc1cn([C@H]2C[C@H](N=[N+]=[N-])[C@@H](CO)O2)c(=O)[nH]c1=O | EC50 | RT activity | - | CEM | 7 d | LAV-Bru | <0.2 µM
Nc1nc(=O)n([C@@H]2C[C@H](O)[C@@H](CO)O2)cc1-c1ccc(-c2ccccc2)s1 | EC50 | RT activity | - | H9 | - | IIIB | >10 µg/mL
O=S(=O)(O)OCC1OC2OC3C(COS(=O)(=O)O)OC(OC4C(COS(=O)(=O)O)OC(OC5C(COS(=O)(=O)O)OC(OC6C(COS(=O)(=O)O)OC(OC7C(COS(=O)(=O)O)OC(OC8C(COS(=O)(=O)O)OC(OC1C(OS(=O)(=O)O)C2OS(=O)(=O)O)C(OS(=O)(=O)O)C8OS(=O)(=O)O)C(OS(=O)(=O)O)C7OS(=O)(=O)O)C(OS(=O)(=O)O)C6OS(=O)(=O)O)C(OS(=O)(=O)O)C5OS(=O)(=O)O)C(OS(=O)(=O)O)C4OS(=O)(=O)O)C(OS(=O)(=O)O)C3OS(=O)(=O)O | EC50 | cytopathic effect / MTT | - | MT-4 | - | NL4-3 | 0.3 µg/mL
Nc1nc(=O)n([C@H]2CO[C@@H](CO)S2)cc1F | EC50 | p24 | - | U-937 | - | IIIB | 0.4 µM
CN(C)c1cccc2c(S(=O)(=O)N3CCSC3c3cccnc3)cccc12 | EC50 | p24 | - | PBMC | 16 d | IIIB | 10.2 µM
Cc1cn([C@H]2C[C@H](N=[N+]=[N-])[C@@H](CN3C(=O)c4c(Br)c(Br)c(Br)c(Br)c4C3=O)O2)c(=O)[nH]c1=O | EC50 | syncytia | - | CEM | - | IIIB | 1.7 µM
CN1C(=O)N(Cc2ccccc2)S(=O)(=O)c2csc([N+](=O)[O-])c21 | EC50 | cytopathic effect / MTT | - | MT-4 | - | IIIB | >368.8 µM
CC(=O)O[C@@]12C[C@@H](C)[C@@]3(O)[C@@H](C=C(CO)C[C@]4(O)C(=O)C(C)=C[C@@H]34)[C@@H]1C2(C)C | EC50 | p24 / ELISA | - | MT-4 | - | NL4-3 | 0.175 µM
CC(C)=CCN1Cc2cc(Cl)cc3[nH]c(=S)n(c23)C[C@@H]1C | EC50 | MTT | RT-L74V | MT-4 | - | ADP144 (RT-L74V) | 0.0004 µg/mL
Nc1nc(=O)n([C@H]2C[C@H](O)[C@@H](CO)O2)cc1-c1ccccc1 | EC50 | RT activity | - | H9 | - | IIIB | >10 µg/mL
NC(N)=NCCC[C@H](NC(=O)[C@@H]1CCCN1C(=O)[C@@H](Cc1ccc(O)cc1)NC(=O)[C@H](Cc1ccc2ccccc2c1)NC(=O)[C@H](CCCN=C(N)N)NC(=O)[C@@H](N)CCCN=C(N)N)C(=O)O | EC50 | cytopathic effect / MTT | - | MT-4 | - | IIIB | 65 µM
Cc1ccc(C(=O)OC[C@H]2O[C@H](n3cc(-c4ccc(-c5ccccc5)s4)c(N)nc3=O)C[C@@H]2OC(=O)c2ccc(C)cc2)cc1 | EC50 | RT activity | - | H9 | - | IIIB | >10 µg/mL
CC(=O)c1ccc(C)cc1NC(C(N)=O)c1c(Cl)cccc1Cl | EC50 | MTT | RT-L74V | MT-4 | - | ADP144 (RT-L74V) | 0.002 µg/mL
COc1ccc2c(c1)c1c3c(c4c5ccccc5n(C)c4c1n2CCC#N)C(=O)NC3=O | EC50 | syncytia | - | U1/HIV-1(+PMA) + U1 | - | - | 0.028 µM
CCc1cc(CCc2nc3ccccc3o2)c(=O)[nH]c1C | EC50 | p24 | RT-K103N Y181C | H9 | - | A17 | <100 µM
Cc1cn([C@H]2C[C@H](N=[N+]=[N-])[C@@H](CO)O2)c(=O)[nH]c1=O | EC50 | syncytia | RT-Y188H | CEM | - | IIIB | 0.001 µg/mL
O=C1N(Cc2ccccc2)c2cscc2S(=O)(=O)N1Cc1ccccc1 | EC50 | syncytia | RT-Y188H | CEM | - | IIIB | 7.8 µM
[N-]=[N+]=N[C@H]1C[C@@H](n2cc(CO)c(=O)[nH]c2=O)O[C@@H]1CO | EC50 | ELISA / antigen | - | MT-4 | - | IIIB | >100 µM
C/C=C/C1=C(/C=C/C(C)O)COC1=O | EC50 | p24 / ELISA / antigen | - | C8166 | - | LAI | 24.32 µg/mL
Cc1cn([C@H]2C[C@H](N=[N+]=[N-])[C@@H](COP(=O)(O)OC[C@H]3OC(O)[C@@H](O)[C@@H](O)[C@@H]3O)O2)c(=O)[nH]c1=O | EC50 | RT activity | - | U-937 | 14 d | LAV-Bru | >25 µM
C#CCN1C(=O)N(Cc2ccccc2)S(=O)(=O)c2cscc21 | EC50 | syncytia | RT-E138K | CEM | - | IIIB | 30.1 µM
Nc1nc(=O)n([C@H]2C[C@H](O)[C@@H](CO)O2)cc1-c1ccc[se]1 | EC50 | RT activity | - | H9 | - | IIIB | >10 µg/mL
Cc1cn([C@H]2C[C@H](N=[N+]=[N-])[C@@H](CO)O2)c(=O)[nH]c1=O | EC50 | cytopathic effect / MTT | - | MT-4 | - | NL43)(JM3100r) | 0.0016 µg/mL
C[C@H](NC(=O)[C@H](Cc1ccc2ccccc2c1)NC(=O)[C@H](CCCN=C(N)N)NC(=O)[C@@H](N)CCCN=C(N)N)C(=O)N[C@@H](Cc1ccc(O)cc1)C(=O)O | EC50 | cytopathic effect / MTT | - | MT-4 | - | IIIB | >100 µM
Cc1ccnc2c1NC(=O)c1cccnc1N2C1CC1 | EC50 | cytopathic effect / MTT | - | MT-4 | - | IIIB | 0.03 µM
Nc1ncnc2c1ncn2[C@H]1CC[C@@H](CO)O1 | EC50 | syncytia | - | JM | - | IIIB | 1.6 µM
Cc1ccnc2c1NC(=O)c1cccnc1N2C1CC1 | EC50 | p24 | - | PBMC | 16 d | IIIB | 0.981 µM
Cc1ccnc2c1NC(=O)c1cccnc1N2C1CC1 | EC50 | syncytia | RT-E103K | CEM | - | IIIB | 0.04 µg/mL
Cc1cc(C#N)cc(C)c1Oc1nc(Nc2ccc(C#N)cc2)nc(N)c1Br | EC50 | absorbance | - | PBMC | - | 1617-1 | 0.0015 µM
O=C1Nc2c(csc2[N+](=O)[O-])S(=O)(=O)N1Cc1ccccc1 | EC50 | cytopathic effect / MTT | - | MT-4 | - | IIIB | >5.9 µM
CC(=O)c1ccc(C)cc1NC(C(N)=O)c1c(Cl)cccc1Cl | EC50 | p24 | - | MT-4 | - | clinical isolate A018C AZT-resistant | 0.024 µM
CCCC1C(=O)OCC1CCC(C)=O | EC50 | p24 / ELISA / antigen | - | C8166 | - | LAI | 36.74 µg/mL